Source: article PMC10525585, “Evaluation of the Antibacterial Effect of Aurone-Derived Triazoles on Staphylococcus aureus” (Antibiotics, 2023)

Each compound was assayed on HepG2 (ATCC HB-8065) cells (assay: Cytotoxicity assay (PrestoBlue)). Conditions: Table S1; CC50:IC50, HepG2 cells to either MSSA or MRSA (best ratio).
Assay type: cell-based, Human

Point of comparison: `O=C(c1ccccc1O)c1n[nH]nc1-c1ccc(Cl)cc1` [AT106], SI 12.99. Against it:
- N#Cc1ccc(-c2n[nH]nc2C(=O)c2ccccc2O)cc1 [AT100] — lower, 1.82
- O=C(c1ccccc1O)c1n[nH]nc1-c1ccc([N+](=O)[O-])cc1 [AT103] — lower, 0.67
- O=C(c1ccccc1O)c1n[nH]nc1-c1cccc(C(F)(F)F)c1 [AT116] — higher, 16.01
- N#Cc1ccc(-c2n[nH]nc2C(=O)c2ccc(Cl)cc2O)cc1 [AT120] — lower, 9.12
- Cc1ccc(-c2n[nH]nc2C(=O)c2cccc(Cl)c2O)cc1 [AT123] — lower, 4.71
- N#Cc1ccc(-c2n[nH]nc2C(=O)c2cccc(Br)c2O)cc1 [AT124] — lower, 0.29
- O=C(c1ccccc1O)c1n[nH]nc1-c1ccc(Br)s1 [AT137] — lower, 12.86
